Results of unrelated studies side by side (data: NIAID ChemDB).

Common to all: tests in culture; agent: HIV-1; cells: MT-4; measure: EC50

Lines come from different laboratories, so protocols vary.

structure,strain or isolate,changes,read by,conditions,result
Cc1cn([C@H]2C=C[C@@H](CO)O2)c(=O)[nH]c1=O,IIIB,,cytopathic effect,,0.25 µM
O=C(CSc1nnnn1-c1cc(F)ccc1Cl)Nc1ccccc1[N+](=O)[O-],,,p24,10% FBS,<0.063 µM
O=C(N[C@H]1c2ccccc2OC[C@H]1O)[C@H](Cc1cccnc1)C[C@H](O)CN1CCN(Cc2ccn(-c3ccc(F)cc3)c2)C[C@H]1C(=O)NCC(F)(F)F,Q-60C Clinical isolate,PR-L10I N37S R41K M46I I54V I62V L63P A71V V77I V82A L90M I93L,p24,,<0.015 µM
CCOCn1c(Sc2ccc3ccccc3c2)c(CC)c(=O)[nH]c1=O,IIIB,,cytopathic effect / MTT,,3.37 µM
N#Cc1ccc(-n2ccc(CN3CCN(C[C@@H](O)C[C@@H](Cc4cccnc4)C(=O)N[C@H]4c5ccccc5OC[C@H]4O)[C@H](C(=O)NCC(F)(F)F)C3)c2)cc1,K-60C Clinical isolate,PR-L10I M46I I54V Q58E L63P I64V V77I V82F I84V L90M I93L,p24,,<0.125 µM
COCOc1ccc(C2CC(=O)c3c(O)cc(OCOC)cc3O2)c(OCOC)c1,IIIB,,MTT,,>100 µg/mL
O=C(CSc1nnnn1-c1c(Cl)cccc1Cl)Nc1ccccc1[N+](=O)[O-],,,p24,10% FBS,<0.015 µM
Cc1ccnc2c1NC(=O)c1cccnc1N2C1CC1,Y188L (subtype B),,MTT,,>2 µg/mL
CCC(C)Oc1cc(=O)[nH]c(Sc2cccc(C)c2)n1,IIIB,,cytopathic effect / MTT,,35 µM
O=C1N(Cc2ccc(CO)cc2)[C@H](Cc2ccccc2)[C@H](O)[C@@H](O)[C@@H](Cc2ccccc2)N1Cc1ccc(CO)cc1,NL4-3,PR-L10R M46I L63P V82T I84V,p24,,<3 µM
CC(C)c1c(Sc2cccc3ccccc23)n(COCC2CCCCC2)c(=O)[nH]c1=O,IIIB,,cytopathic effect / MTT,,12.53 µM
Cc1cc(C#Cc2ccc(C(=O)O)cc2)cc(C)c1Oc1ccnc(Nc2ccc(C#N)cc2)n1,IIIB,,MTT,,0.063 µM
CN[C@H]1CO[C@@H]2OCC[C@H](OC(=O)N[C@@H](Cc3cccc(OC)c3)[C@H](O)CN(CC(C)C)S(=O)(=O)c3ccc4nc(NC(C)C)sc4c3)[C@@H]21,NL4-3,L23I E34Q K43I M46I I50L G51A L63P A71V V82A T91A,p24 / luminescence,,0.0025 µM
O=c1[nH]c2c(c(=O)[nH]1)C(c1ccccc1)c1c([nH]c(=O)[nH]c1=O)O2,L1,,cytopathic effect,,116.3 µM
CCc1c(Sc2cccc3ccccc23)n(COC)c(=O)[nH]c1=O,IIIB,,cytopathic effect / MTT,,0.5 µM
Cc1cn([C@H]2C[C@H](N=[N+]=[N-])[C@@H](CO)O2)c(=O)[nH]c1=O,NL4-3,RT-K103N Y181C,cytopathic effect,,0.003 µM
Cc1cn([C@H]2C[C@H](N=[N+]=[N-])[C@@H](CO)O2)c(=O)[nH]c1=O,IIIB,K103N,MTT,,0.006 µM
Nc1ccn([C@H]2CC[C@@H](CO)O2)c(=O)n1,BI-03.97 (HXB2(RT-A62V S68G T69D V75I F77L F116Y Q151M)),RT-A62V S68G T69D V75I F77L F116Y Q151M,cytopathic effect,,>20 µM
C#Cc1ccc(Nc2nccc(Oc3c(C)cc(-c4cn(CC(=O)OC)nn4)cc3C)n2)cc1,IIIB,K103N,MTT,,6.64 µM
CC(C)CN(C[C@@H](O)[C@H](Cc1ccccc1)NC(=O)O[C@H]1CCOC1)S(=O)(=O)c1ccc(N)cc1,NL4-3,L10I N37D G48V I54V L63P G73C I84V L90M,p24 / luminescence,,>1 µM
N#Cc1cccc(-n2ccc(CN3CCN(C[C@@H](O)C[C@@H](Cc4cccnc4)C(=O)N[C@H]4c5ccccc5OC[C@H]4O)[C@H](C(=O)NCC(F)(F)F)C3)c2)c1,K-60C Clinical isolate,PR-L10I M46I I54V Q58E L63P I64V V77I V82F I84V L90M I93L,p24,,<0.062 µM
C#Cc1ccc(Nc2nccc(Oc3c(C)cc(-c4cn(-c5cccc(C(=O)OC)c5)nn4)cc3C)n2)cc1,IIIB,Y181C,MTT,,0.46 µM
CCc1cc(NCc2nc3c(Cl)ccc(Cl)c3o2)c(=O)[nH]c1C,HXBE30(RT-P236L),RT-P236L,antigen,,<0.01 µM
CCC(C)Oc1cc(N)nc(S(=O)(=O)c2cccc(OC)c2)n1,IIIB,,cytopathic effect / MTT,,>99.5 µM
CC(C)=CCc1c(-c2ccc(O)cc2O)oc2c3c(cc(O)c2c1=O)OC(C)(C)C=C3,IIIB,,MTT,,>20 µg/mL
N#Cc1ccccc1-n1ccc(CN2CCN(C[C@@H](O)C[C@@H](Cc3cccnc3)C(=O)N[C@H]3c4ccccc4OC[C@H]3O)[C@H](C(=O)NCC(F)(F)F)C2)c1,K-60C Clinical isolate,PR-L10I M46I I54V Q58E L63P I64V V77I V82F I84V L90M I93L,p24,,<0.25 µM
Cc1cc(C)c(-n2nnnc2SCC(=O)Nc2ccc(S(N)(=O)=O)cc2C)c(C)c1,,,p24,50% human serum,<0.58 µM
Cc1cn([C@H]2C[C@H](N=[N+]=[N-])[C@@H](CO)O2)c(=O)[nH]c1=O,K103N (subtype B),,MTT,,0.0005 µg/mL
CCC(C)Oc1cc(N)nc(Sc2cccc(N)c2)n1,IIIB,,cytopathic effect / MTT,,>112 µM
COc1nc(=O)[nH]c2c1C(c1ccc(Br)cc1)c1c(OC)nc(=O)[nH]c1O2,IIIB,,cytopathic effect,,273 µM
COc1c(CC=C(C)C)c(O)cc2oc(=O)c3c4ccc(O)cc4oc3c12,IIIB,,MTT,,>20 µg/mL
CCOCn1c(Cc2ccccc2)c(C(C)C)c(=O)[nH]c1=O,IIIB,,,,0.015 µM
C#Cc1ccc(Nc2nccc(Oc3c(C)cc(-c4cn(CC(=O)Nc5ccc(Br)cc5)nn4)cc3C)n2)cc1,IIIB,Y188L,MTT,,>19.78 µM
CCN[C@H]1CO[C@@H]2OCC[C@H](OC(=O)N[C@@H](Cc3cccc(OC)c3)[C@H](O)CN(CC(C)C)S(=O)(=O)c3ccc4nc(NC(C)C)sc4c3)[C@@H]21,NL4-3,L10I L33I M36I M46I I54V K55R I62V L63P A71V G73S V82T L90M I93L,p24 / luminescence,,0.0077 µM
CCC(C)Oc1cc(N)nc(Sc2ccccc2C)n1,IIIB,,cytopathic effect / MTT,,>99 µM
O=C(N[C@H]1c2ccccc2OC[C@H]1O)[C@H](Cc1cccnc1)C[C@H](O)CN1CCN(Cc2ccn(-c3ccccc3Cl)c2)C[C@H]1C(=O)NCC(F)(F)F,Q-60C Clinical isolate,PR-L10I N37S R41K M46I I54V I62V L63P A71V V77I V82A L90M I93L,p24,,<0.031 µM
CC(=O)Oc1ccc(/C=C/C(=O)O[C@@H](C(=O)O)[C@@H](OC(=O)/C=C/c2ccc(OC(C)=O)c(OC(C)=O)c2)C(=O)O)cc1OC(C)=O,NL4-3,AMD3100-resistant,,,>74 µM
Cc1ccnc2c1NC(=O)c1cccnc1N2C1CC1,IIIB,E138K,MTT,,0.158 µM
O=c1[nH]cnc2c1ncn2[C@H]1CC[C@@H](CO)O1,HXB2D (RT-M184V),RT-M184V,p24,,37.6 µM
CCc1c(Sc2cccc3ccccc23)n(COCc2cccc(F)c2)c(=O)[nH]c1=O,IIIB,,cytopathic effect / MTT,,0.21 µM
C#Cc1ccc(Nc2nccc(Oc3c(C)cc(-c4cn(CC(=O)Nc5ccc(S(C)(=O)=O)cc5)nn4)cc3C)n2)cc1,IIIB,Y188L,MTT,,>6.36 µM
CC(C)(C)NC(=O)[C@@H]1C[C@@H]2CCCC[C@@H]2CN1C[C@@H](O)[C@H](Cc1ccccc1)NC(=O)[C@H](CC(N)=O)NC(=O)c1ccc2ccccc2n1,NL4-3,PR-L10R M46I V82T,p24,,<0.025 µM
CCc1c(Sc2cccc3ccccc23)n(COCc2ccccc2)c(=O)[nH]c1=O,IIIB,,cytopathic effect / MTT,,0.048 µM
Cc1cccc(C)c1Oc1ccnc(Nc2ccc(C#N)cc2)n1,IIIB,Y188L,MTT,,0.318 µM
CC(C)CN(C[C@@H](O)[C@H](Cc1ccccc1)NC(=O)O[C@H]1CCO[C@H]2OCC[C@H]21)S(=O)(=O)c1ccc2nc(NC3CC3)sc2c1,NL4-3,,p24 / luminescence,,0.006 µM
Cc1ccnc2c1NC(=O)c1cccnc1N2C1CC1,IIIB,,MTT,,0.118 µM
C=CC(C)(C)c1cc([C@@H]2COc3c(ccc4c3C=CC(C)(C)O4)C2)c(O)cc1O,IIIB,,MTT,,>20 µg/mL
Cc1cc(C#Cc2cccc(N)c2)cc(C)c1Oc1ccnc(NC2CCN(c3cccc(C(N)=O)c3)CC2)n1,IIIB,F227L + V106A,MTT,,>1.063 µM
C#Cc1ccc(Nc2nccc(Oc3c(C)cc(-c4cn(CCc5ccccc5)nn4)cc3C)n2)cc1,IIIB,L100I,MTT,,>5.66 µM
Cc1cc(C#Cc2cccnc2)cc(C)c1Oc1ccnc(Nc2ccc(C#N)cc2)n1,IIIB,K103N,MTT,,0.01 µM
C#Cc1ccc(Nc2nccc(Oc3c(C)cc(-c4cn(-c5ccc(C(=O)O)cc5)nn4)cc3C)n2)cc1,IIIB,Y188L,MTT,,6.22 µM
Cc1ccnc2c1NC(=O)c1cccnc1N2C1CC1,,RT-Y181C,cytopathic effect / MTT,,10 µM
CC(C)Nc1cccnc1N1CCN(C(=O)c2cc3cc(NS(C)(=O)=O)ccc3[nH]2)CC1,IIIB,,cytopathic effect,,0.02 µM
COc1ccc(Oc2coc3cc(O)cc(O)c3c2=O)c(OC)c1,IIIB,,cytopathic effect / MTT,,>100 µg/mL
CC(C)(C)NC(=O)[C@@H]1C[C@@H]2CCCC[C@@H]2CN1C[C@@H](O)[C@H](Cc1ccccc1)NC(=O)[C@H](CC(N)=O)NC(=O)c1ccc2ccccc2n1,IIIB,PR-I84V,cytopathic effect / XTT,,0.013 µM
Cc1cc(C#Cc2cccc(N)c2)cc(C)c1Oc1ccnc(NC2CCN(Cc3cccc(C(N)=O)c3)CC2)n1,IIIB,F227L + RES056,MTT,,≥0.163 µM
CCc1c(Sc2ccc3ccccc3c2[N+](=O)[O-])n(COCc2ccccc2)c(=O)[nH]c1=O,IIIB,,cytopathic effect / MTT,,0.065 µM
CC(C)=CCc1c(O)cc2occ(-c3cc(O)c4c(c3)C=CC(C)(C)O4)c(=O)c2c1O,IIIB,,MTT,,>20 µg/mL
O=C(N[C@H]1c2ccccc2OC[C@H]1O)[C@H](Cc1cccnc1)C[C@H](O)CN1CCN(Cc2ccn(-c3cccc(F)c3)c2)C[C@H]1C(=O)NCC(F)(F)F,K-60C Clinical isolate,PR-L10I M46I I54V Q58E L63P I64V V77I V82F I84V L90M I93L,p24,,<0.031 µM
CO[P@](=O)(c1cc(C)cc(/C=C/C#N)c1)c1c(C(N)=O)[nH]c2ccc(Cl)c(F)c12,NL4-3,WT,ELISA,,0.002 µM
COc1c2c(cc(O)c1CC=C(C)C)OCC(c1ccc(O)cc1O)=C2,IIIB,,MTT,,>20 µg/mL
Cc1cc(/C=C/c2ccccc2)cc(C)c1Oc1ccnc(Nc2ccc(C#N)cc2)n1,IIIB,RES056,MTT,,6.433 µM
O=C(/C=C/c1ccccc1)c1ccccc1O,IIIB,,MTT,,>4 µg/mL
CCC(C)Oc1cc(=O)[nH]c(Sc2ccccc2C)n1,IIIB,,cytopathic effect / MTT,,37 µM
CCOC(=O)c1oc2cc(O)cc(O)c2c(=O)c1Oc1ccccc1,IIIB,,cytopathic effect / MTT,,>100 µg/mL
CC(C)Nc1cccnc1N1CCN(C(=O)c2cc3cc(NS(C)(=O)=O)ccc3[nH]2)CC1,IIIB,Y181C,MTT,,1.916 µM
Cc1cc(C)c(-n2nnnc2SCC(=O)Nc2ccccc2Br)c(C)c1,,,p24,50% human serum,<0.81 µM
Clc1nc(Cl)c2c(n1)Oc1nc(Cl)nc(Cl)c1C2c1ccccc1,L1,,cytopathic effect,,17.5 µM
CN[C@H]1CO[C@@H]2OCC[C@H](OC(=O)N[C@@H](Cc3ccccc3)[C@H](O)CN(CC(C)C)S(=O)(=O)c3ccc4nc(NC5CC5)sc4c3)[C@@H]21,NL4-3,L10I I54V K20R L24I V32I L33F M36I M46I I54M L63P K70Q V82I I84V L89M,p24 / luminescence,,0.038 µM

For reference, 7 entries again:

structure	strain or isolate	changes	read by	conditions	result
C#Cc1ccc(Nc2nccc(Oc3c(C)cc(-c4cn(CC(=O)OC)nn4)cc3C)n2)cc1	IIIB	K103N	MTT		6.64 µM
O=C(CSc1nnnn1-c1c(Cl)cccc1Cl)Nc1ccccc1[N+](=O)[O-]			p24	10% FBS	<0.015 µM
O=C1N(Cc2ccc(CO)cc2)[C@H](Cc2ccccc2)[C@H](O)[C@@H](O)[C@@H](Cc2ccccc2)N1Cc1ccc(CO)cc1	NL4-3	PR-L10R M46I L63P V82T I84V	p24		<3 µM
CCC(C)Oc1cc(N)nc(Sc2ccccc2C)n1	IIIB		cytopathic effect / MTT		>99 µM
N#Cc1ccccc1-n1ccc(CN2CCN(C[C@@H](O)C[C@@H](Cc3cccnc3)C(=O)N[C@H]3c4ccccc4OC[C@H]3O)[C@H](C(=O)NCC(F)(F)F)C2)c1	K-60C Clinical isolate	PR-L10I M46I I54V Q58E L63P I64V V77I V82F I84V L90M I93L	p24		<0.25 µM
C#Cc1ccc(Nc2nccc(Oc3c(C)cc(-c4cn(-c5ccc(C(=O)O)cc5)nn4)cc3C)n2)cc1	IIIB	Y188L	MTT		6.22 µM
CCOCn1c(Cc2ccccc2)c(C(C)C)c(=O)[nH]c1=O	IIIB				0.015 µM

Blank or dashed fields: not listed here. ECn is the concentration giving n% inhibition of infection, replication or growth.